Values from PubChem BioAssay AID504761 (Drosophila RNAi Screening Center, 2011).
The deposit covers about 22,000 reagents; shown is a random part of those with a known target gene and a result. Of all reagents, 116 (0.52%) got an active call. 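Calls depend on retest data that are not deposited; infection was ranked per plate without normalising between plates; the unit of the infection score is not given.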 The raw values are shown without normalisation. Not given: the amount of reagent, the time to read-out.

- Purpose: 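Fly genes whose silencing reduces dengue virus type 2 infection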 (primary screen)
- System: D.Mel-2 cells from Drosophila
- Reagents: long dsRNA against Drosophila genes
- Treatment: infection with dengue virus type 2; dose and infection time not stated
- Measurement: 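Per well on two replicate plates, imaging gave the percent of cells positive for viral envelope protein, ranked by infection, and a nuclear count of cells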
- Scale: infection score: higher = more virus-infected cells; cell count: higher = more cells in the well
- Active means: 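Low infection ranks in the two replicates (chance level up to 0.065) followed by a retest with a 1.5-fold or larger significant decrease, p below 0.05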
- Meaning of the calls: active = confirmed: knock-down lowers infection; inactive = not picked or not confirmed

predicted target | amplicon | infection score, replicate 1 | infection score, replicate 2 | cell count, replicate 1 | cell count, replicate 2 | call
CG5026 | DRSC10470 | 0.95 | 0.25 | 525 | 402 | inactive
Clbn | DRSC14404 | 1.93 | 3.33 | 6517 | 6160 | inactive
Rac2 | DRSC11262 | 8.59 | 6.13 | 6238 | 6555 | inactive
Rac2 | DRSC25086 | 8.77 | 2.65 | 6591 | 5896 | inactive
CG7326 | DRSC20037 | 0.37 | 0.54 | 6178 | 5741 | inactive
Fim | DRSC20243 | 3.13 | 1.8 | 6681 | 6571 | inactive
His3.3B | DRSC17773 | 6.1 | 2.92 | 6101 | 6059 | inactive
His3.3B | DRSC18673 | 2.63 | 3.76 | 5774 | 6121 | inactive
His3.3B | DRSC28380 | 15.4 | 15.7 | 4448 | 3817 | inactive
His3.3B | DRSC28708 | 25.2 | 19.3 | 5811 | 5655 | inactive
CG9135 | DRSC03144 | 3.89 | 4.96 | 6173 | 6048 | inactive
CG6262 | DRSC23105 | 5.32 | 1.1 | 6526 | 6834 | inactive
CG6262 | DRSC27998 | 10.2 | 11.1 | 6165 | 6159 | inactive
trio | DRSC07928 | 0.61 | 0.25 | 6683 | 6378 | inactive
trio | DRSC08740 | 1.81 | 2.02 | 6300 | 6289 | inactive
trio | DRSC26700 | 2.32 | 3.2 | 5775 | 6507 | inactive
Ddr | DRSC02150 | 1.75 | 0.85 | 6565 | 6460 | inactive
Ddr | DRSC03229 | 2.08 | 2.29 | 6353 | 6641 | inactive
Ddr | DRSC03230 | 3.26 | 2.64 | 6527 | 6095 | inactive
Ddr | DRSC22818 | 1.29 | 12.5 | 6204 | 5734 | inactive
Nhe3 | DRSC03380 | 3.68 | 1.29 | 6192 | 6505 | inactive
CG2839 | DRSC00544 | 3.21 | 1.72 | 6580 | 6355 | inactive
CG2839 | DRSC28090 | 32 | 16.6 | 5219 | 5497 | inactive

Reformatted: entries from further up
predicted target,amplicon,"infection score, replicate 1","infection score, replicate 2","cell count, replicate 1","cell count, replicate 2",call
Ddr,DRSC03230,3.26,2.64,6527,6095,inactive
Ddr,DRSC22818,1.29,12.5,6204,5734,inactive
